Test results taken from PubChem BioAssay AID720535 (National Center for Advancing Translational Sciences (NCATS), 2013).
The entries are a selection whose mix differs from that of the whole data set. Results filed as inconclusive are left out. Activity calls are given as the source filed them. Calls follow the shape of the dose curve; as a rule, active = well fitted inhibition curve with a large enough effect; inconclusive = small, poorly fitted or top-dose-only effect; inactive = flat fitted curve, though single readings scatter.

Assay: qHTS for Inhibitors of TGF-b: Cytotox Counterscreen for Cherry Picks; also: nearly all actives have a fitted effect of over 70% in size
Conditions: HepG2 CAGA-GFP viability, ATP luminescence, 18 h; cells stimulated with TGF-beta, 500 pg/mL
Description: TGF-b is a main component in the TGF-b signaling pathway which plays diverse roles in cellular and development pathways. TGF-b is mediated by transcription factors called "Smads". Although the Smad-dependent pathway is the primary canonical TGF-b signaling mode, TGF-b1 can also activate alternative signaling pathways, including those involving MAPK (ERK, JNK and p38). This interaction may mediate or enhance Smad-dependent responses, or can exert Smad-independent effects. The complexity of this signaling cascade allows the TGF-b superfamily to perform unique, overlapping or redundant functions. […] We aim to identify Smad3-small molecule antagonists using a quantitative high throughput screening (qHTS) approach. […]
Suspensions of trypsinized HEPG2 CAGA-GFP cells were dispensed into white, tissue culture-treated, solid 1536-well plates at 5uL/well (1000 cells/well final concentration) in DMEM medium supplemented with 1% FBS. […] Two uL of CellTiter Glo (Promega), a luminescence-based viability reagent, was dispensed, followed by a 10 minute room temperature incubation. The plates were then measured on a PerkinElmer ViewLux plate reader for luminescence (clear filter) using a 5 second exposure. The %Activity was determined from the corrected luminescence values. […] Concentration-response curves were fitted to the signals arising from the resulting luminescence. […]
Potency is read from the fitted curve at half-maximal effect.

| Structure (SMILES) | Potency |
| --- | --- |
| CC(=O)OCC12CC(OC(=O)CC(C)C)C(C)=CC1OC1C(O)C(OC(C)=O)C2(C)C12CO2 (stereo unspecified) | active: 461 nM |
